Anti-infective test results gathered from many reports (values: NIAID ChemDB through PubChem).

All rows: target-level tests

Neighbouring rows are from separate reports. Inhibition is in % at the dose shown (toxicity tests: loss of growth or viability). Fold resistance has wild type as its base. An empty or dashed field is not shown. ICn is the concentration giving n% inhibition. a–b is a range or a potency band.

SMILES | method | target | changes | read-out | tested at | strain | organism | value
O=C(O)c1nc(-c2sccc2NCc2ccccc2)[nH]c(=O)c1O |  | HCV polymerase |  | IC50 |  |  | Hepatitis C virus | <25 µM
Fc1ccccc1N1CCN(c2cncc(-c3cc(C(F)(F)F)cc(C(F)(F)F)c3)n2)CC1 |  | UL97 kinase |  | inhibition | 10 µM |  | Cytomegalovirus | >15%
COc1ccccc1-c1cc(-c2ccc(Cl)cc2)n2nc(C(=O)O)cc2n1 |  | RNA-dependent RNA polymerase |  | IC50 |  |  | Hepatitis C virus | >10 µM
CC(C)N(C(=O)c1ccc(Cl)cc1O)c1cc(-c2ccccc2)sc1C(=O)O |  | NS3 ATPase |  | IC50 |  |  | Hepatitis C virus | <5 µM
CN(Cc1ccc2nc(N)nc(N)c2n1)c1ccc(C(=O)N2CCOCC2)cc1 |  | Dihydrofolate reductase |  | IC50 |  | TYPE 2 | Cryptosporidium parvum | 0.65 µM
CC(C)(C)CNc1nnc(NC(=O)/C=C/c2ccccc2Cl)s1 |  | Polymerase |  | IC50 |  |  | Human cytomegalovirus | >25 µM
COc1cccc(-c2cncc(N3CCN(c4cccc(Cl)c4)CC3)n2)c1OC |  | UL97 kinase |  | IC50 |  |  | Cytomegalovirus | <100 µM
COc1ccccc1C(=O)Nc1nnc(NCC2CCCCC2)s1 |  | Polymerase |  | IC50 |  |  | Human cytomegalovirus | >25 µM
Nc1ccn([C@@H]2CS[C@H](COP(=O)(O)OP(=O)(O)OP(=O)(O)O)O2)c(=O)n1 | radiometric | Reverse transcriptase | RT-K103N | Ki |  |  | HIV | 0.123 µM
Cc1ccc(-c2nc(C(=O)O)c(O)c(=O)[nH]2)cc1 |  | HCV polymerase |  | IC50 |  |  | Hepatitis C virus | <100 µM
CCCc1ccc(-c2ccc(C=C3SC(=S)N(c4ccc(C(=O)O)cc4)C3=O)o2)s1 |  | NS5 polymerase |  | IC50 |  |  | Bovine viral diarrhea virus | ≤1 µM
COc1cccc(-c2ccccc2-c2ccnc3cc(C(=O)O)nn23)c1 |  | RNA-dependent RNA polymerase |  | IC50 |  |  | Hepatitis C virus | >10 µM
O=C(CCCCCl)Nc1nnc(NCC2CCCCC2)s1 |  | Polymerase |  | IC50 |  |  | Human cytomegalovirus | >25 µM
O=C(NCc1ccc(C(F)(F)F)cc1)Nc1cscc1-c1nc(C(=O)O)c(O)c(=O)[nH]1 |  | HCV polymerase |  | IC50 |  |  | Hepatitis C virus | <25 µM
COc1ccc2c(c1OC)Cc1nc(N)nc(N)c1-2 |  | Dihydrofolate reductase |  | IC50 |  | TYPE 2 | Cryptosporidium parvum | >10 µM
Cc1ccccc1S(=O)(=O)Nc1cc(-c2sccc2C)sc1C(=O)O |  | NS3 ATPase |  | IC50 |  |  | Hepatitis C virus | 5–20 µM
Oc1cc(O)c2c(c1)O[C@H](c1cc(O)c(O)c(O)c1)[C@@H](O)C2 |  | DNA polymerase |  | inhibition | 5 µg/mL |  | Epstein-Barr virus | 21.9%
CN(C)c1ccc(-c2cncc(N3CCN(c4ccc(Cl)c(Cl)c4)CC3)n2)cc1 |  | UL97 kinase |  | IC50 |  |  | Cytomegalovirus | <100 µM
O=C(O)c1cc2nc(-c3ccc(OCc4ccccc4)cc3)cc(-c3ccc(Cl)cc3)n2n1 |  | RNA-dependent RNA polymerase |  | IC50 |  |  | Hepatitis C virus | 1–10 µM
O=C(CSCc1ccncc1)Nc1ccsc1-c1nc(C(=O)O)c(O)c(=O)[nH]1 |  | HCV polymerase |  | IC50 |  |  | Hepatitis C virus | <25 µM
O=C(Nc1nnc(NCCc2c[nH]c3ccccc23)s1)c1ccc(Cl)c(Cl)c1 |  | Polymerase |  | IC50 |  |  | Human cytomegalovirus | >25 µM
O=C(O)c1ccc(-c2ccc(Cl)cc2)c(COc2ccc(-c3cnc4c(-c5nn[nH]n5)cnn4c3C3CCCCC3)cc2)c1 |  | RNA-dependent RNA polymerase |  | IC50 |  |  | Hepatitis C virus | <1 µM
O=C(O[C@@H]1O[C@@H]2COC(=O)c3cc4c(O)c(O)c3-c3c(cc(O)c(O)c3O)C(=O)O[C@H]2[C@H](OC(=O)c2cc(O)c(O)c(O)c2)[C@H]1OC(=O)c1cc(O)c(O)c(O)c1Oc1cc2c(c(O)c1O)-c1c(cc(O)c(O)c1O)C(=O)OC[C@H]1OC(O)[C@H](OC(=O)c3cc(O)c(O)c(O)c3O4)[C@@H](OC(=O)c3cc(O)c(O)c(O)c3)[C@@H]1OC2=O)c1cc(O)c(O)c(O)c1 |  | DNA polymerase |  | inhibition | 2.5 µg/mL |  | Epstein-Barr virus | 30.4%
O=C(CCCCCl)Nc1nnc(NCCC(c2ccccc2)c2ccccc2)s1 |  | Polymerase |  | IC50 |  |  | Human cytomegalovirus | >25 µM
CC(NC(=O)Nc1ccccc1-c1nc(C(=O)O)c(O)c(=O)[nH]1)c1cccc2ccccc12 |  | HCV polymerase |  | IC50 |  |  | Hepatitis C virus | <100 µM
O=C(O)c1ccc(N2C(=O)C(=Cc3ccc(-c4ccc(C(F)(F)F)cn4)o3)SC2=S)cc1 |  | NS5 polymerase |  | IC50 |  |  | Bovine viral diarrhea virus | ≤1 µM
Nc1nc(N)c2nc(Cc3cccc(C(F)(F)F)c3)c(Cc3cccc(C(F)(F)F)c3)nc2n1 |  | Dihydrofolate reductase |  | IC50 |  | TYPE 2 | Cryptosporidium parvum | >10 µM
CCOC(=O)c1cnn2c(C(F)(F)F)cc(-c3ccc(OC)cc3)nc12 |  | RNA-dependent RNA polymerase |  | IC50 |  |  | Hepatitis C virus | >10 µM
COc1ccc(CN2CCn3ccc(=O)c(O)c3C2=O)cc1Cl | ELISA | Integrase |  | IC50 |  |  | HIV-1 | 0.01–0.1 µM
c1ccc(Oc2ccc(-c3cncc(N4CCN(c5ccccn5)CC4)n3)cc2)cc1 |  | UL97 kinase |  | IC50 |  |  | Cytomegalovirus | <100 µM
CC(C)=CCN1Cc2cccc3[nH]c(=S)n(c23)C[C@@H]1C | nucleotide incorporation | Reverse transcriptase | RT-W266S | fold resistance |  |  | HIV | >185
COc1ccc(CO)c(CNc2ccc3nc(N)nc(N)c3c2Cl)c1 |  | Dihydrofolate reductase |  | IC50 |  | TYPE 2 | Cryptosporidium parvum | 0.023 µM
CC(=O)Nc1cnn2c(C3CCCCC3)c(-c3ccc(OCc4ccccc4)cc3)cnc12 |  | RNA-dependent RNA polymerase |  | IC50 |  |  | Hepatitis C virus | >10 µM
CC(=O)c1ccccc1-c1cncc(N2CCN(c3cccc(C(F)(F)F)c3)CC2)n1 |  | UL97 kinase |  | inhibition | 10 µM |  | Cytomegalovirus | >15%
Cc1ccccc1S(=O)(=O)Nc1cc(-c2ccc(-c3ccc(Br)cc3)cc2)sc1C(=O)O |  | NS3 ATPase |  | IC50 |  |  | Hepatitis C virus | <5 µM
O=C(O)c1ccc(N2C(=O)C(=Cc3ccc(-c4cc(Cl)cc(Cl)c4)o3)SC2=S)cc1 |  | NS5 polymerase |  | IC50 |  |  | Bovine viral diarrhea virus | ≤1 µM
CC(C)C(=O)N(Cc1ccc(Cl)cc1)c1cc(-c2ccccc2)sc1C(=O)O |  | NS3 ATPase |  | IC50 |  |  | Hepatitis C virus | 5–20 µM
O=C(O)c1nc(-c2ccccc2Nc2ccccc2)[nH]c(=O)c1O |  | HCV polymerase |  | IC50 |  |  | Hepatitis C virus | <100 µM
O=C(O)CCN1C(=O)C(=Cc2ccc(-c3cc4ccc(OCc5ccccc5)cc4o3)o2)SC1=S |  | NS5 polymerase |  | IC50 |  |  | Bovine viral diarrhea virus | ≤1 µM
O=c1ccn2ccn(Cc3ccc(F)c(Cl)c3)c(=O)c2c1O | ELISA | Integrase |  | IC50 |  |  | HIV-1 | <0.01 µM
O=C(Nc1cscc1-c1nc(C(=O)O)c(O)c(=O)[nH]1)NS(=O)(=O)c1cccc2ccccc12 |  | HCV polymerase |  | IC50 |  |  | Hepatitis C virus | <25 µM
O=C(Nc1nnc(NCc2ccc(Cl)c(Cl)c2)s1)c1ccc([N+](=O)[O-])o1 |  | Polymerase |  | IC50 |  |  | Human cytomegalovirus | >25 µM
NC(=O)c1ccc(-c2cncc(N3CCN(c4ccccc4)CC3)n2)cc1 |  | UL97 kinase |  | IC50 |  |  | Cytomegalovirus | <1 µM
CC(C)(C)OC(=O)N[C@H](COC(=O)Nc1ccsc1-c1nc(C(=O)O)c(O)c(=O)[nH]1)c1ccccc1 |  | HCV polymerase |  | IC50 |  |  | Hepatitis C virus | <25 µM
O=C1c2c(O)c(=O)ccn2CCN1Cc1cccc(Cl)c1F | ELISA | Integrase |  | IC50 |  |  | HIV-1 | 0.01–0.1 µM
O=C(O)CCN1C(=O)C(=Cc2ccc(-c3sccc3Cl)o2)SC1=S |  | NS5 polymerase |  | IC50 |  |  | Bovine viral diarrhea virus | ≤1 µM
CCc1ccccc1-c1nc2nc(N)nc(N)c2nc1-c1ccccc1CC |  | Dihydrofolate reductase |  | IC50 |  | TYPE 1 | Cryptosporidium parvum | >10 µM
O=c1c(Br)cn2ccn(Cc3cccc(Cl)c3)c(=O)c2c1O | ELISA | Integrase |  | IC50 |  |  | HIV-1 | 0.01–0.1 µM
CC(C)CNC(C(=O)Nc1ccsc1-c1nc(C(=O)O)c(O)c(=O)[nH]1)c1ccccc1 |  | HCV polymerase |  | IC50 |  |  | Hepatitis C virus | <25 µM
O=C(Nc1nnc(NCCc2ccccc2)s1)c1cccc([N+](=O)[O-])c1 |  | Polymerase |  | IC50 |  |  | Human cytomegalovirus | >25 µM
CC(=O)c1ccc(-c2cncc(N3CCN(c4ccc(C)cc4C)CC3)n2)s1 |  | UL97 kinase |  | inhibition | 10 µM |  | Cytomegalovirus | >15%
COc1cc(-c2sc3nc(N)nc(N)c3c2C)cc(OC)c1OC |  | Dihydrofolate reductase |  | IC50 |  | TYPE 2 | Cryptosporidium parvum | >10 µM
O=C(N[C@H](C(=O)O)c1ccc(O)cc1)c1cc2nc(-c3ccco3)c(C3CCCCC3)c(=O)n2[nH]1 |  | RNA-dependent RNA polymerase |  | IC50 |  |  | Hepatitis C virus | <1 µM

For reference, 5 entries again:

SMILES,method,target,changes,read-out,tested at,strain,organism,value
O=C(O)c1ccc(N2C(=O)C(=Cc3ccc(-c4ccc(C(F)(F)F)cn4)o3)SC2=S)cc1,,NS5 polymerase,,IC50,,,Bovine viral diarrhea virus,≤1 µM
COc1ccccc1-c1cc(-c2ccc(Cl)cc2)n2nc(C(=O)O)cc2n1,,RNA-dependent RNA polymerase,,IC50,,,Hepatitis C virus,>10 µM
Cc1ccccc1S(=O)(=O)Nc1cc(-c2sccc2C)sc1C(=O)O,,NS3 ATPase,,IC50,,,Hepatitis C virus,5–20 µM
COc1cc(-c2sc3nc(N)nc(N)c3c2C)cc(OC)c1OC,,Dihydrofolate reductase,,IC50,,TYPE 2,Cryptosporidium parvum,>10 µM
CCCc1ccc(-c2ccc(C=C3SC(=S)N(c4ccc(C(=O)O)cc4)C3=O)o2)s1,,NS5 polymerase,,IC50,,,Bovine viral diarrhea virus,≤1 µM